Molecular target: crypto-M. tuberculosis MAS (FAS/PKS hybrid) labeled with coumarin-PPant

B1: acyl carrier protein hydrolase (AcpH) from Pseudomonas fluorescens NCIMB 10586 (protein)
chain: MNYLAHLHLGGQLPAQLLGSLYGDFVKGRLQGQFSPQIEAAIQLHRSIDRFTDSHPLVGEALSRFSQTRRRYAGIVLDVFFDHCLARDWALYADQPLERFTSHVYQVLAAEPALPGRLAQIAPYMAADDWLGSYREFAVMEQVLRGISRRLTQPEELGYAMQELRVLYEPLSEDFRLFYPELQAFALQF
- AcpH qualitative CP activity: no

Reference: patent US20150253335
